Pooled drug test results. Numbers come from NIAID ChemDB, via PubChem.

Shared fields: whole-cell or culture tests; organism: Mycobacterium kansasii; measure: MIC

Blank or dashed fields: not listed here.

SMILES	setting	method	strain	value
O=C(Nc1ccc(C(F)(F)F)cc1)c1ccc(Cl)cc1OS(=O)(=O)c1ccccc1	7 d		6509/96	4 µM
CO[C@H]1[C@@H](O)[C@H](n2ccc(=O)[nH]c2=O)O[C@@H]1[C@@H](O[C@H]1OC(C(=O)N[C@H]2CCC[C@@H](C)NC2=O)=C[C@H](O)[C@@H]1O)C(N)=O		broth dilution	ATCC 35775	4 µg/mL
Oc1ccc(CCN=C=S)cc1		visual reading		32 µg/mL
CC(C)[C@H](NC(=O)OCc1ccccc1)c1cnc(-c2ccccc2)[nH]1	7 d		My 235/80	62.5 µM
O=C(Oc1cc(Cl)ccc1C(=O)Nc1ccc(F)cc1)c1ccccc1	21 d	broth dilution	6509/96	8 µM
Cc1ccn2c(C(=O)NCc3ccc4c(c3)CCO4)c(C)nc2c1		MTT	Clinical isolate 0008	32 µg/mL
O=C(Oc1cc(Cl)ccc1C(=O)Nc1ccc(F)cc1)c1cnccn1	7 d		6509/96	2 µM
COc1ccc2oc(=O)n(-c3ccc(Cl)c(Cl)c3)c(=S)c2c1	14 d		My 235/80	62.5 µM
N/C(=N\N=C\c1cc(Cl)ccc1O)SCc1ccc(Cl)cc1	21 d	broth dilution	6509/96	32 µM
O=C(Nc1cccc(F)c1)c1cc(Cl)ccc1OS(=O)(=O)c1ccccc1	7 d		235/80	32 µM
Cc1ccc2nc(C)c(C(=O)NCc3ccc(C(F)(F)F)cc3)n2c1		MTT	Clinical isolate SHP	0.125 µg/mL
NC(=O)c1cnccn1	7 d		235/80	250–1000 µM
CC(C)[C@H](NC(=O)OCc1ccccc1)c1cnc(-c2ccc([N+](=O)[O-])cc2)[nH]1	14 d		My 6509/96	32 µM
COC(=O)/C=C/C(=O)c1ccc(C(C)(C)C)cc1				32 µg/mL
Cc1ccc2oc(=S)n(-c3ccc(Br)cc3)c(=S)c2c1	21 d		My 235/80	4 µM
Cc1ccc2c(=S)n(-c3ccc(C(C)C)cc3)c(=S)oc2c1	14 d	broth dilution	6509/96	2 µM
O=c1oc2ccc(Br)cc2c(=S)n1-c1ccc(C(F)(F)F)cc1	21 d		6509/96	16 µM
O=C(Nc1ccc(C(F)(F)F)cc1)c1cc(Cl)ccc1OS(=O)(=O)c1ccccc1	7 d		6509/96	125 µM
O=C(Nc1ccc(Cl)c(Cl)c1)c1cc(Cl)ccc1O	7 d	broth dilution	6509/96	8 µM
COc1cc(/C=C/C2=NN(C(=N)N)C(c3cc(OC)c(OC)c(OC)c3)C2)cc(OC)c1OC		resazurin		21.25 µM
O=C(Oc1cc(Cl)ccc1C(=O)Nc1cccc(Cl)c1)c1ccccc1	14 d	broth dilution	235/80	4 µM
O=C(Nc1cccc(Cl)c1)c1ccc(Cl)cc1OS(=O)(=O)c1ccccc1	21 d		235/80	16 µM
C[C@@H]1CN(c2c(F)c(N)c3c(=O)c(C(=O)O)cn(C4CC4)c3c2F)C[C@H](C)N1		broth dilution / visual reading	ATCC 12478	0.2 µg/mL
O=c1oc2ccc(F)cc2c(=S)n1-c1ccc(Cl)cc1	14 d		My 235/80	2 µM
O=C(Oc1ccc(Cl)cc1)c1cnccn1	14 d		235/80	500 µM
O=C(Oc1ccc(Cl)cc1C(=O)Nc1ccc(Br)cc1)c1ccccc1	21 d	broth dilution	235/80	4 µM
N/C(=N\N=C\c1ccccc1O)SCc1ccc(Cl)cc1	14 d	broth dilution	ATCC 12478	32 µM
CC(=O)Oc1ccccc1C(=O)Nc1cnccn1		resazurin		>100 µg/mL
O=c1oc2ccc(Br)cc2c(=S)n1-c1ccc(Br)cc1	21 d		My 235/80	4 µM
O=C(Oc1ccc(Cl)cc1C(=O)Nc1cccc(Cl)c1)c1ccccc1	7 d	broth dilution	235/80	2 µM
O=C(Nc1ccc(Br)cc1)c1cc(Cl)ccc1OS(=O)(=O)c1ccccc1	7 d		235/80	8 µM
N/C(=N\N=C\c1cc(Cl)cc(Cl)c1O)SCc1ccc(Br)cc1	14 d	broth dilution	ATCC 12478	32 µM
Fc1ccc(-n2c(=S)oc3ccc(Cl)cc3c2=S)cc1	21 d		My 235/80	16 µM
COC(=O)c1cnccn1	14 d		235/80	>500 µM
Cc1ccccc1/C=C/C1=NN(C(=N)N)C(c2ccccc2C)C1		resazurin		1.96 µM
COc1ccc2oc(=S)n(-c3ccc(Cl)cc3)c(=S)c2c1	21 d		My 235/80	32 µM
O=C(Oc1cc(Cl)ccc1C(=O)Nc1ccc(Br)cc1)c1ccccc1	7 d	broth dilution	6509/96	2 µM

For reference, 2 entries again:

SMILES	setting	method	strain	value
O=C(Nc1ccc(Cl)c(Cl)c1)c1cc(Cl)ccc1O	7 d	broth dilution	6509/96	8 µM
Cc1ccc2nc(C)c(C(=O)NCc3ccc(C(F)(F)F)cc3)n2c1		MTT	Clinical isolate SHP	0.125 µg/mL

Neighbouring rows are from separate reports. a–b is a range or a potency band.